# Share of PSTVd loop 15 variants by leaf site

PSTVd intermediate strain, loop 15: wild type GGAAACCGCUACUAC, pool pattern GGAAACCGNNNNNNC; upper and lower strand joined, each 5' to 3', the first 7 letters being the upper strand, closing pairs included.

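Three N. benthamiana plants were inoculated with the whole mutant pool. Progeny were sequenced from the inoculated region (day 5), the margin of the inoculated leaf (day 10) and systemic leaves (day 12).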

Values are reads per thousand in the sample; higher means more abundant, 0 means not found. Each value is the mean of three plants. "Pool" is the share in the plasmid pool used as inoculum, on the same scale. The inoculated region was read from the minus strand, the other sites from the plus strand. With 43,870-66,106 reads a sample, very low values are single reads. The authors trace changes outside the varied positions to PCR and sequencing errors or to mutation in the plant; presence does not show that a variant is infectious alone. Wild type was 33.9 per thousand in the pool and the most common sequence in every sample (inoculated region 202, 200, 159; leaf margin 724, 746, 710; systemic leaves 856, 883, 880).

sequence,pool,inoculated region,leaf margin,systemic leaves
GGAAACCGAUGAGUC,0.256,0.0869,0,0
GGAAACCGUGGGAUC,0.240,0.0773,0,0
GGAAACCGCACUAAC,0.208,0.124,0.00668,0
GGAAACCUCUACUAC,0.0960,0.408,0.560,0.231
GGAAACCGACCACCC,0.208,0.0977,0.0121,0
GGAAACCGACUUAAC,0.112,0.125,0.00668,0
GGAAACCGGAUAGGC,0.192,0.0868,0.00539,0
GGAAACCGCCGGUGC,0.240,0.307,0.110,0.0743
GGAAACCGUUUGCCC,0.208,0.141,0.0316,0
GGAAACCGGAGGCGC,0.272,0.0674,0.0187,0
GGAAACCGACUCCAC,0.288,0.113,0.00539,0.0107
GGAAACCGGCCUCCC,0.192,0.0741,0.0141,0.00537
GGAAACCGACCGAAC,0.352,0.268,0.0913,0.0689
GGAAACCGCCCUUUC,0.176,0.292,0.138,0.0107
GGAAACCGCCAACCC,0.272,0.107,0.0134,0
GGAAACCGCAGAGUC,0.160,0.222,0,0.00537
GGAAACCGCUUCUGC,0.272,0.0667,0,0
GGAAACCGCUACUAC,33.9,187,727,873
GGAAACCGCCAAACC,0.336,0.0951,0.0121,0
GGAAACCGAUGCACC,0.144,0.104,0.0208,0
GGAAACCGUGGAGGC,0.320,0.0568,0.00539,0
GGAAACCGGGCUCCC,0.128,0.106,0.0187,0
GGAAACCGGUAGUCC,0.288,0.378,0.163,0.0407
GGAAACCGGUAAGCC,0.208,0.116,0,0
GGAAACCGCGUCGCC,0.352,0.0514,0.0208,0
GGAAACCGCGAUGUC,0.208,0.0661,0.0141,0
GGAAACCGGAAUUGC,0.240,0.0807,0.00539,0
GGAAACCGGCAAGGC,0.288,0.0748,0.0121,0
GGAAACCGGACACGC,0.192,0.0920,0.00668,0
GGAAACCGUACGAAC,0.304,0.363,0.0993,0.0158
GGAAACCGGACCUCC,0.240,0.0687,0.00742,0
GGAAACCGGACCCAC,0.224,0.119,0,0
GGAAACCGCAUGCUC,0.224,0.0903,0.00668,0
GGAAACCGUCGUACC,0.240,0.102,0.0162,0
GGAAACCGUGAUUUC,0.240,0.288,0.139,0.0642
GGAAACCGUUAUGAC,0.240,0.366,0.105,0.0215
GGAAACCGAAUUAUC,0.240,0.0895,0.0121,0
GGAAACCGUUUUACC,0.320,0.0516,0.0121,0
GGAAACCGAGUUUCC,0.288,0.126,0.0262,0
GGAAACCGACUGUUC,0.192,0.520,0.114,0.00537
GGAAACCGGCAGCGC,0.160,0.101,0.00742,0.00537
GGAAACCGGUUAGAC,0.240,0.0336,0.0134,0
GGAAACCGUUCUUAC,0.192,0.242,0.120,0.0661
GGAAACCGGCCGUUC,0.256,0.411,0.104,0.0489
GGAAACCGCUGGAAC,0.352,0.0623,0.0341,0
GGAAACCGAUCAAAC,0.144,0.140,0.00742,0
GGAAACCGUCAAUUC,0.240,0.288,0.106,0.0742
GGAAACCGUAAAGGC,0.192,0.132,0.00539,0
GGAAACCGCCUAGGC,0.256,0.0985,0.00539,0
GGAAACCGCGUCAGC,0.176,0.123,0.0141,0
GGAAACCGACCGCGC,0.224,0.0687,0.0128,0
GGAAACCGCGUUACC,0.320,0.0958,0.0241,0
GGAAACCGGCGGUGC,0.288,0.0603,0.00539,0
GGAAACCGCGGCAGC,0.224,0.133,0.0141,0.00537
GGAAACCGCAGUUCC,0.176,0.136,0.0321,0
GGAAACCGUGCGCAC,0.176,0.0974,0,0
GGAAACCGUGUUCCC,0.272,0.0569,0.00668,0
GGAAACCGUUGGGAC,0.192,0.266,0.0982,0.0268
GGAAACCGAGUCAUC,0.208,0.125,0,0.00537
GGAAACCGCCAGAAC,0.240,0.320,0.0731,0.0610
GGAAACCGCGUCGGC,0.192,0.169,0,0.0107
GGAAACCGUCGGUCC,0.240,0.0787,0.0148,0
GGAAACCGGCUACGC,0.176,0.0643,0.0195,0
GGAAACCGAUUUUCC,0.176,0.0983,0.00539,0

Excerpt, the final 6 entries:

{"sequence": "GGAAACCGAGUCAUC", "pool": "0.208", "inoculated region": 0.125, "leaf margin": 0, "systemic leaves": 0.00537}
{"sequence": "GGAAACCGCCAGAAC", "pool": "0.240", "inoculated region": 0.320, "leaf margin": 0.0731, "systemic leaves": 0.0610}
{"sequence": "GGAAACCGCGUCGGC", "pool": "0.192", "inoculated region": 0.169, "leaf margin": 0, "systemic leaves": 0.0107}
{"sequence": "GGAAACCGUCGGUCC", "pool": "0.240", "inoculated region": 0.0787, "leaf margin": 0.0148, "systemic leaves": 0}
{"sequence": "GGAAACCGGCUACGC", "pool": "0.176", "inoculated region": 0.0643, "leaf margin": 0.0195, "systemic leaves": 0}
{"sequence": "GGAAACCGAUUUUCC", "pool": "0.176", "inoculated region": 0.0983, "leaf margin": 0.00539, "systemic leaves": 0}

Values reported by Wu et al. 2024 (doi:10.1371/journal.ppat.1012142).